Results from patent publication US20250270296A1 (ACADEMIA SINICA, published 2025).

Biological target: S protein of SARS-CoV-2 variant B.1.526 (NY, Iota), full length, on pseudovirus (SARS-CoV-2, UniProt P0DTC2 14-1273)
Experiment: cell-based or functional assay

B1: RBD-chAb-45 (antibody, V domains shown)
VH: EVQLQQSGPELVKPGASVKISCKTSGYTFTEYTIYWVKQSLGKSLEWIGGNNPNNDDTTYKQFFKGKATLTVDKSSSTAYMELRSLTSEDSAVYYCARDGYPYYYALDFWGQGTSVTVSS
VL: DILMTQSQKFMSTSVGDRVSVTCKSSQNVGTNVAWYQQKPGQSPKALIYSASYRYSGVPDHFTGSGSGTDFTLTISNVQSADLAEYFCQQYNNYPWTFGGGTKLDIK
For B1, the “SARS-CoV-2 pseudovirus IC50” value was 4.23 ng/mL.
